Results of unrelated studies side by side (data: NIAID ChemDB).

Common to all: growth or infection tests; organism: Cytomegalovirus; cells: HEL; read-out: EC50

ECn: concentration that inhibits the pathogen or its effect by n%.

{"smiles": "O=c1[nH]cnc2c1ncn2CCOCP(=O)(O)O", "strain or isolate": "DAVIS", "method": "plaque count", "value": "150 µg/mL"}
{"smiles": "O=c1[nH]c(=O)n([C@H]2C[C@H](O)[C@@H](CO)S2)cc1C1CCC1", "strain or isolate": "DAVIS/AD169", "method": "plaque count", "value": ">1500 µM"}
{"smiles": "Nc1ncc2ncn(CCOCP(=O)(O)O)c2n1", "strain or isolate": "AD169", "method": "cytopathic effect", "value": "200 µg/mL"}
{"smiles": "Nc1nc(N)c2nnn(C[C@H]3CC[C@@H](CO)C3)c2n1", "strain or isolate": "DAVIS", "method": "cytopathic effect", "value": ">200 µg/mL"}
{"smiles": "CCc1cn([C@H]2C[C@H](O)[C@@H](CO)O2)c(=O)[nH]c1=O", "strain or isolate": "DAVIS/AD169", "method": "plaque count", "value": ">2000 µM"}
{"smiles": "Nc1ncnc2c1ncn2CCOCP(=O)(O)O", "strain or isolate": "DAVIS", "method": "plaque count", "value": "25 µg/mL"}
{"smiles": "C[C@H]1C[C@@H](n2cnc3c(N)ncnc32)[C@H](O)[C@@H]1O", "strain or isolate": "DAVIS", "method": "cytopathic effect", "value": ">10 µg/mL"}
{"smiles": "Nc1nc(N)c2ncn(CCOCP(=O)(O)O)c2n1", "strain or isolate": "AD169", "method": "cytopathic effect", "value": "20 µg/mL"}
{"smiles": "Cc1cn([C@H]2C[C@H](O)[C@@H](CO)O2)c(=O)[nH]c1=O", "strain or isolate": "DAVIS/AD169", "method": "plaque count", "value": ">2000 µM"}
{"smiles": "Nc1nc2c(ncn2CCOCP(=O)(O)O)c(=O)[nH]1", "strain or isolate": "AD169", "method": "plaque count", "value": "0.1 µg/mL"}
{"smiles": "O=c1[nH]c(=O)n([C@H]2C[C@H](O)[C@@H](CO)O2)cc1C1CCC1", "strain or isolate": "DAVIS/AD169", "method": "plaque count", "value": ">1500 µM"}
{"smiles": "Nc1nc(N)c2ncn(C[C@H]3CC[C@@H](CO)C3)c2n1", "strain or isolate": "DAVIS", "method": "cytopathic effect", "value": ">50 µg/mL"}
{"smiles": "O=c1ccn(CC(CO)OCP(=O)(O)O)c(=O)[nH]1", "strain or isolate": "DAVIS", "method": "plaque count", "value": "25 µg/mL"}
{"smiles": "O=c1ccn([C@H]2C[C@H](O)[C@@H](CO)O2)c(=O)[nH]1", "strain or isolate": "DAVIS/AD169", "method": "plaque count", "value": ">2000 µM"}
{"smiles": "Nc1nc2c(nnn2C[C@H]2CC[C@@H](CO)C2)c(=O)[nH]1", "strain or isolate": "DAVIS", "method": "cytopathic effect", "value": ">200 µg/mL"}
{"smiles": "C[C@@H]1CC[C@H]2[C@@H](C)C(=O)O[C@@H]3OC4(C)CC[C@@H]1[C@]32OO4", "strain or isolate": "AD169", "method": "plaque count", "value": ">50 µg/mL"}
{"smiles": "Nc1ncnc2c1ncn2CCOCP(=O)(O)O", "method": "cytopathic effect", "value": ">50 µg/mL"}
{"smiles": "CCc1cn([C@H]2C[C@H](O)[C@@H](CO)S2)c(=O)[nH]c1=O", "strain or isolate": "DAVIS/AD169", "method": "plaque count", "value": ">2000 µM"}

Conditions beyond the fields shown may differ between rows.